Assay results reported in ChEMBL document CHEMBL4049445.
Calls of active or inactive are those of the source. The calls are words filed in the database; no cut-off is given here.

System: Influenza A virus (A/WSN/1933(H1N1))
Assay: Antiviral activity against Influenza A virus A/WSN/33 (H1N1) expressing M2 proton channel N31S/V27A double mutant infected in MDCK cells assessed as reduction in plaque formation measured at 46 hrs by crystal violet staining based assay

| SMILES | Activity |
| --- | --- |
| C1CC(C2C3CC4CC(C3)CC2C4)CCN1 (stereo not given) | inactive |
| C1CCC(C23CC4CC(CC(C4)C2)C3)NC1 (stereo not given) | inactive |
| N=C(N)N1CCC(C=C2C3CC4CC(C3)CC2C4)CC1 | inactive |
| C1CC(C23CC4CC(CC(C4)C2)C3)CCN1 | Active |
| N=C(N)N1CCC(C23CC4CC(CC(C4)C2)C3)CC1 | inactive |
